From patent US20120121633A1, “HIV CD4 BINDING SITE BASED COVALENT IMMUNOGEN COMPOSITIONS” (priority 2010, published 2012)

Biological target: soluble CD4 (sCD4) (Homo sapiens, UniProt P01730)
Test: sCD4 binding to immobilized electrophilic 421-433 CD4BS mimetics (ELISA)
Conditions: immobilized KLH-E-416-433; from FIG. 10A data; read-out: apparent dissociation constant for specific binding to soluble CD4 (sCD4)
Description: FIG. 10. […] KLH-E-VIP, an irrelevant electrophilic peptide described in ref 3.
FIG. 29. […] I19-21 IgA from patients with HIV infection for 19-21 years, 100 μg/mL. […] MAb YZ23 raised by immunization with E-120, 6 μg/mL.
E-421-433. […] KLH-E-VIP, an irrelevant electrophilic peptide described in ref 122. […] I19-21 IgA from patients with HIV infection for 19-21 years, 100 μg/mL.

## KLH-E-416-433: E-416-433 peptide with phosphonate groups at Lys side chains, conjugated via N-terminal Cys to keyhole limpet hemocyanin (CLPSRIKQIINMWQEVGKA; left off: large carriers; small tags and cut ends)
  Kd: 182 nM
